According to the NIST ThermoML archive (doi:10.1016/j.tca.2010.07.032):
Where “and” joins values, the source holds several entries; their conditions need not be identical. Identical values can stand only once. ± gives the expanded uncertainty stated by the source.

Settings: Liquid; Temperature-Programmed Gas Chromatography

For `CCCCOP(=O)(OCCCC)OCCCC` [tributyl phosphate], the Normal boiling temperature was 288.19 ± 29 °C and 285.50 ± 29 °C.
